The data set deals with sNTD (A3G NTD solubility-enhanced variant) + VCBC (Vif-CBFbeta-ELOB-ELOC). The data set can be described thus: pull-down (GST). The conditions noted are these: RNA-mediated sNTD-VCBC complex, Pull-down: 25 mM sodium phosphate pH 7.3, 150 mM NaCl, 0.5 mM TCEP, 10 uM proteins, 20 uM oligo, room temperature, recombinant protein, protein details: GST.

We go through two sequences from paper PMC10328928.

For at least one entry, the source does not settle the construct or the ends of the probe.

Take CGGAAGAUCGUUGGAACAAA [RNA-I-20]: where the note is “letters put together from the description”, the binding result was “binds”.

As to “GCUAAACUGACGGAAGAUCGUUGGAACAAA [RNA-I-30]”, the binding result is given as “binds”.
